# Data reported in PubChem BioAssay AID504621 (Broad Institute, 2011).
# The list shows a part of the results, in another mix than the full data. The source made the active and inactive calls.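 How the source made its calls: active means every replicate shows inhibition above about 80%, whatever the replicate mean (limit read from the data); inconclusive means mean inhibition reaches the set limit but some replicate falls short; inactive means the rest.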
# Assay: growth inhibition of PfHsp90-expressing yeast, primary screen, antimalarial PfHsp90 inhibitor project, S. cerevisiae, BacTiter-Glo luminescence, single point, set 2 (AID 504621);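 further: yeast relying on Plasmodium falciparum Hsp90 in place of its own; 0% = DMSO neutral controls and 100% = 20 µM radicicol positive controls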
# Details: BacTiter-Glo ATP, 48 h, at 9.4 µM, stronger effect = higher value, yeast lacking PDR1 and PDR3 efflux regulators
row,SMILES,inhibition
1,COc1ccc(C(=O)NCC2(N3CCOCC3)CCCCC2)cc1OC,inactive: 30.6%
2,COc1cc(C(=O)NCC2(N3CCOCC3)CCCCC2)cc(OC)c1C,inactive: -33%
3,O=C(NCC1(N2CCOCC2)CCCCC1)c1cc(Br)ccc1Cl,inactive: -4.02%
4,O=C(OC1CN2CCC1CC2)C1c2ccccc2C=Cc2ccccc21 (stereo not drawn),inactive: 3.03%
5,CCOC(=O)N1CCC(Nc2ccc(C)cc2)CC1,inactive: -11.6%
6,N/C(=N\O)c1c(N)no[n+]1[O-],inactive: -65.5%
7,N#Cc1ccc(C(=O)NCC2(N3CCCCC3)CCCCC2)cc1,inactive: 17.9%
8,CC(C)(C)OC(=O)N1CCC(N(C(=O)c2ccccc2)c2ccc(Cl)cc2)CC1,inactive: -8.66%
9,CN(C)C1(CNC(=O)c2cccc(C#N)c2)CCCCC1,inactive: -1.28%
10,c1ccc(CN2CCC(Nc3ccccc3)CC2)cc1,inactive: -5.69%
11,CCCN1CCC(Nc2cc(OC)cc(OC)c2)CC1,inactive: -20.2%
12,Cc1cc(N(CCCl)CCCl)ccc1C=O,inactive: 10.3%
13,Fc1ccccc1NC1CCN(Cc2ccccc2)CC1,inactive: -6.45%
14,Cc1ccc(NC2(C#N)CCN(Cc3ccccc3)CC2)cc1,inactive: 10.8%
15,COc1cc(OC)cc(C(=O)NCC2(N3CCCCC3)CCCCC2)c1,inactive: 6.93%
16,O=C(NCC1(N2CCCCC2)CCCCC1)c1ccco1,inactive: -5.91%
17,Cn1c(=O)[nH]cc(N(CCCl)CCCl)c1=O,inactive: -5.12%
18,Cc1ccccc1NC1(C#N)CCN(Cc2ccccc2)CC1,inactive: 16.9%
19,CCN1CCC(Nc2cccc(F)c2)CC1,inactive: -4.22%
20,CC(C)(C)OC(=O)N1CCC(Nc2ccccc2)CC1,inactive: 17.5%
21,O=C(O)C1(Nc2ccccc2)CCN(Cc2ccccc2)CC1,inactive: 32.1%
22,CCCOc1ccc(C(=O)NCC2(N(C)C)CCCCC2)cc1,inactive: -5.63%
23,CCOc1ncccc1C(=O)NCC1(N2CCOCC2)CCCCC1,inactive: 11.2%

row,SMILES,inhibition
1,CN1CCC(Nc2ccc(F)c(Cl)c2)CC1,inactive: -5.66%
2,CN1CCC(Nc2ccc(Cl)cc2)CC1,inactive: -8.48%
3,COc1cc(OC)cc(C(=O)NCC2(N3CCOCC3)CCCCC2)c1,inactive: 2.67%
4,COc1cccc(C(=O)N(c2cc(C)cc(C)c2)C2CCN(C(=O)OC(C)(C)C)CC2)c1,inactive: -3.84%
5,CCC(CO)(C(=O)OC1CN2CCC1CC2)c1ccccc1 (stereo not drawn),inactive: 0.251%
6,CSc1ccccc1C(=O)NCC1(N2CCCCC2)CCCCC1,inactive: -24.9%
7,Cc1cccc(NC2(C#N)CCN(Cc3ccccc3)CC2)c1,inactive: -8.21%
8,COc1ccc(C(=O)NCC2(N3CCCCC3)CCCCC2)cc1,inactive: 2.8%
9,COc1ccc(C(=O)NCC2(N3CCCCC3)CCCCC2)c(OC)c1OC,inactive: 9.48%
10,CC(C)(C)OC(=O)N1CCC(N(C(=O)c2ccccc2)c2ccc(F)cc2)CC1,inactive: -4.83%
11,O=C(NCC1(N2CCCCC2)CCCCC1)c1ccc(=O)[nH]c1,inactive: 10.3%
12,O=C(NCC1(N2CCCCC2)CCCCC1)c1ccc(Cl)s1,inactive: 22.1%
13,N#CC1(Nc2ccccc2)CCN(Cc2ccccc2)CC1,inactive: -13.7%
14,O=C(OC1CN2CCC1CC2)C1c2ccccc2Oc2ccccc21 (stereo not drawn),inactive: -10.7%
15,COc1ccc(Cl)cc1C(=O)NCC1(N2CCOCC2)CCCCC1,inactive: -5.83%
16,CCOC(=O)N1CCC(Nc2ccc(OC)cc2)CC1,inactive: -12.1%
17,Cc1cc(C)cc(N(C(=O)c2ccccc2)C2CCN(C(=O)OC(C)(C)C)CC2)c1,inactive: -14.8%
18,O=C(NCC1(N2CCOCC2)CCCCC1)c1cc2ccccc2o1,inactive: 0.723%
19,O=P1(N(CCCl)CCCl)SCCCS1,inactive: 13.3%
20,CCCCOc1ccc(C(=O)NCC2(N3CCOCC3)CCCCC2)cc1,inactive: 11.6%
21,O=C(NCC1(N2CCCCC2)CCCCC1)c1ccc(F)cc1,inactive: 19%
22,COc1ccc(NC2CCN(CCc3ccccc3)CC2)c(OC)c1,inactive: 20.5%
23,CCOC(=O)N1CCC(Nc2ccc(F)cc2)CC1,inactive: -15.4%

row,SMILES,inhibition
1,O=C1CCN(Cc2ccccc2)CC1,inactive: 9.03%
2,CCOc1ccc(C)cc1CN(CCCl)CCCl,inactive: 11.6%
3,CCOC(=O)N1CCC(Nc2cccc(C)c2)CC1,inactive: -9.1%
4,COc1cc(C(=O)NCC2(N(C)C)CCCCC2)ccc1OC(F)F,inactive: -11%
5,CCN1CCC(Nc2ccc(Cl)cc2)CC1,inactive: 7.11%
6,N#CC1(Nc2ccccc2)CCN(CCc2ccccc2)CC1,inactive: 6.84%
7,O=C(NCC1(N2CCCCC2)CCCCC1)c1cccc([N+](=O)[O-])c1,inactive: 3.6%
8,CSc1ccc(C(=O)NCC2(N3CCOCC3)CCCCC2)cc1,inactive: 4.26%
9,O=C(NCC1(N2CCCCC2)CCCCC1)c1ccc(OC(F)F)cc1,inactive: 5.45%
10,COc1cc(C(=O)NCC2(N3CCCCC3)CCCCC2)ccc1OC(F)F,inactive: -43.6%
11,CN1CCN(CCOC(=O)C(O)(c2ccccc2)c2ccccc2)CC1,inactive: 3.56%
12,COc1ccc(NC2CCN(C(=O)OC(C)(C)C)CC2)cc1,inactive: -41.1%
13,CC(C)c1ccc(C(=O)NCC2(N3CCOCC3)CCCCC2)cc1,inactive: 7.41%
14,O=C(NCC1(N2CCCCC2)CCCCC1)c1cccc(C(F)(F)F)c1,inactive: 20.7%
15,COc1cc(OC)c(C(=O)NCC2(N(C)C)CCCCC2)cc1OC,inactive: -0.271%
16,O=C(NCC1(N2CCOCC2)CCCCC1)c1cc(F)c(F)cc1Cl,inactive: 5.23%
17,CC(C)c1ccc(NC2CCN(C(=O)OC(C)(C)C)CC2)cc1,inactive: -74.9%
18,COc1ccc(CN(CCCl)CCCl)cc1Cl,inactive: 5.95%
19,CN(C)c1cccc(C(=O)NCC2(N3CCCCC3)CCCCC2)c1,inactive: -23.5%
20,CCCOc1ccc(C(=O)NCC2(N(C)C)CCCCC2)cc1OC,inactive: 3.37%
21,CN1CCC(Nc2cccc(F)c2)CC1,inactive: -25.7%
22,O=C(NCC1(N2CCCCC2)CCCCC1)c1cncc(Br)c1,inactive: -10.7%
